Results on 1 substance are retold here after patent US5985289, “Haemophilus somnus outer membrane protein extract enriched with iron-regulated proteins” (dated 1999).

The target of the assay is P. haemolytica leukotoxin (P. haemolytica) (UniProt P16535). Briefly: standard ELISA of calf sera, group mean of six control calves.

Substance “serum of control calves vaccinated with placebo (sterile saline combined with adjuvant, Vaccination Trial C) (polyclonal serum or antibody)” displayed an Anti-Leukotoxin Titer at 10 Days After Second Vaccination (mean) of 3880 titer.
